Assay results: article PMC5520654 (Journal of immunology (Baltimore, Md. : 1950), 2017)

Conditions: 20 h incubation, Supplemental Figure 1

With CB-TE1A1P-PEG4-LLP2A [^64Cu-LLP2A] the “stability in macaque serum (decomposition or free copper)” value was “no decomposition or free copper”.
